Converted amounts (≈) assume the structure as drawn.
Key:
Experiment in all cases: agar serial dilution test, MIC
Conditions in all cases: 24 hours at 37°C
[1] = tested on: Staphylococcus aureus A 2000; type: cell-based
Proteus mirabilis H 3 = type: cell-based
Proteus morganii 2241 = type: cell-based
[2] = tested on: Pasteurella multocida A 723; type: cell-based
[3] = tested on: Klebsiella pneumoniae A 809; type: cell-based
[4] = tested on: Streptococcus faecalis L 80; type: cell-based
[5] = tested on: Pseudomonas aeruginosa H 10; type: cell-based
[6] = tested on: Staphylococcus aureus A 355'; type: cell-based
[7] = tested on: Salmonella typhimurium R 127; type: cell-based
Escherichia coli U 20 = type: cell-based
[8] = tested on: Staphylococcus aureus A 321; type: cell-based
[9] = tested on: Streptococcus haemolyticus A 266; type: cell-based
[10] = tested on: Pseudomonas aeruginosa 2396; type: cell-based
Salmonella dublin P 43 = type: cell-based
Proteus mirabilis A 1200 = type: cell-based
Proteus rettgeri A 821 = type: cell-based
[11] = tested on: Pseudomonas aeruginosa Wyeth A 1058; type: cell-based
[12] = tested on: Diplococcus pneumoniae L 54; type: cell-based
Proteus mirabilis L 93 = tested on: Proteus mirabilis L 93
[13] = tested on: Brucella melitensis A 488
Shigella equirulis T 3 = tested on: Shigella equirulis T 3
[14] = tested on: Streptococcus haemolyticus A 1088; type: cell-based
Brucella suis A 1088 = tested on: Brucella suis A 1088
[15] = tested on: Staphylococcus aureus A 2001; type: cell-based
[16] = tested on: Salmonella typhimurium R172; type: cell-based

Compound	MIC [1] [µg/mL]	MIC (Proteus mirabilis H 3) [µg/mL]	MIC (Proteus morganii 2241) [µg/mL]	MIC [2] [µg/mL]	MIC [3] [µg/mL]	MIC [4] [µg/mL]	MIC [5] [µg/mL]	MIC [6] [µg/mL]	MIC [7] [µg/mL]	MIC (Escherichia coli U 20) [µg/mL]	MIC [8] [µg/mL]	MIC [9] [µg/mL]	MIC [10] [µg/mL]	MIC (Salmonella dublin P 43) [µg/mL]	MIC (Proteus mirabilis A 1200) [µg/mL]	MIC (Proteus rettgeri A 821) [µg/mL]	MIC [11] [µg/mL]	MIC [12] [µg/mL]	MIC (Shigella equirulis T 3) [µg/mL]	MIC [15] [µg/mL]	other results
CCOP(=S)(NC(=S)N[C@@H](C(=O)N[C@@H]1C(=O)N2[C@@H]1SC(C)(C)[C@@H]2C(=O)O)c1ccccc1)OCC	25 (≈ 44.6 µM)	> 100	> 100	6 (≈ 10.7 µM)	> 100	50 (≈ 89.2 µM)	> 100	> 100	> 100	> 100	3 (≈ 5.35 µM)	0.5 (≈ 0.892 µM)	> 100	> 100	> 100	> 100	> 100	3 (≈ 5.35 µM)	25 (≈ 44.6 µM)	–	MIC (Proteus mirabilis L 93): 25 µg/mL (≈ 44.6 µM); MIC [13]: 6 µg/mL (≈ 10.7 µM)
CC1(C)S[C@@H]2[C@H](NC(=O)[C@H](NC(=O)NP(=O)(O)O)c3ccccc3)C(=O)N2[C@H]1C(=O)O	–	–	–	0.75 (≈ 1.59 µM)	100 (≈ 212 µM)	–	–	–	–	3 (≈ 6.35 µM)	–	–	6 (≈ 12.7 µM)	0.75 (≈ 1.59 µM)	–	–	1.5 (≈ 3.18 µM)	6 (≈ 12.7 µM)	1.5 (≈ 3.18 µM)	–	MIC [14]: 0.75 µg/mL (≈ 1.59 µM); MIC (Brucella suis A 1088): 1.5 µg/mL (≈ 3.18 µM)
CC1(C)S[C@@H]2[C@H](NC(=O)[C@H](NC(=S)NP(=O)(Oc3ccccc3)Oc3ccccc3)c3ccccc3)C(=O)N2[C@H]1C(=O)O	25 (≈ 39 µM)	25 (≈ 39 µM)	> 100	–	100 (≈ 156 µM)	50 (≈ 78 µM)	> 100	25 (≈ 39 µM)	100 (≈ 156 µM)	100 (≈ 156 µM)	0.25 (≈ 0.39 µM)	0.12 (≈ 0.187 µM)	100 (≈ 156 µM)	–	–	25 (≈ 39 µM)	100 (≈ 156 µM)	0.5 (≈ 0.78 µM)	–	3 (≈ 4.68 µM)	MIC (Proteus mirabilis L 93): 3 µg/mL (≈ 4.68 µM); MIC [13]: 0.25 µg/mL (≈ 0.39 µM)
CC1(C)S[C@@H]2[C@H](NC(=O)[C@H](NC(=S)NP(=S)(Oc3ccccc3)Oc3ccccc3)c3ccccc3)C(=O)N2[C@H]1C(=O)O	–	50 (≈ 76.1 µM)	> 100	1.5 (≈ 2.28 µM)	100 (≈ 152 µM)	25 (≈ 38.1 µM)	> 100	–	100 (≈ 152 µM)	100 (≈ 152 µM)	1.5 (≈ 2.28 µM)	0.3 (≈ 0.457 µM)	> 100	100 (≈ 152 µM)	25 (≈ 38.1 µM)	25 (≈ 38.1 µM)	> 100	–	–	3 (≈ 4.57 µM)	MIC (Proteus mirabilis L 93): 3 µg/mL (≈ 4.57 µM); MIC [13]: 1.5 µg/mL (≈ 2.28 µM)
CC1(C)S[C@@H]2[C@H](NC(=O)[C@H](NC(=O)NP(=O)(Oc3ccccc3)Oc3ccccc3)c3ccccc3)C(=O)N2[C@H]1C(=O)O	3 (≈ 4.8 µM)	–	50 (≈ 80 µM)	3 (≈ 4.8 µM)	25 (≈ 40 µM)	0.25 (≈ 0.4 µM)	> 100	6 (≈ 9.61 µM)	50 (≈ 80 µM)	50 (≈ 80 µM)	0.06 (≈ 0.0961 µM)	0.05 (≈ 0.08 µM)	50 (≈ 80 µM)	25 (≈ 40 µM)	–	6 (≈ 9.61 µM)	50 (≈ 80 µM)	0.06 (≈ 0.0961 µM)	0.12 (≈ 0.192 µM)	0.25 (≈ 0.4 µM)	MIC (Proteus mirabilis L 93): 3 µg/mL (≈ 4.8 µM); MIC [13]: 0.03 µg/mL (≈ 0.048 µM)
CC1(C)S[C@@H]2[C@H](NC(=O)[C@H](NC(=O)NP(=O)(c3ccccc3)c3ccccc3)c3ccccc3)C(=O)N2[C@H]1C(=O)O	3 (≈ 5.06 µM)	–	> 100	0.8 (≈ 1.35 µM)	50 (≈ 84.4 µM)	3 (≈ 5.06 µM)	100 (≈ 169 µM)	6 (≈ 10.1 µM)	25 (≈ 42.2 µM)	–	0.8 (≈ 1.35 µM)	0.03 (≈ 0.0506 µM)	50 (≈ 84.4 µM)	6 (≈ 10.1 µM)	–	3 (≈ 5.06 µM)	50 (≈ 84.4 µM)	> 100	3 (≈ 5.06 µM)	1.5 (≈ 2.53 µM)	MIC (Proteus mirabilis L 93): 6 µg/mL (≈ 10.1 µM); MIC [13]: 0.8 µg/mL (≈ 1.35 µM)
CC1(C)S[C@@H]2[C@H](NC(=O)[C@H](NC(=O)NP(=O)(O)c3ccccc3)c3ccccc3)C(=O)N2[C@H]1C(=O)O	6 (≈ 11.3 µM)	3 (≈ 5.63 µM)	6 (≈ 11.3 µM)	–	–	–	50 (≈ 93.9 µM)	–	–	–	0.75 (≈ 1.41 µM)	–	–	6 (≈ 11.3 µM)	3 (≈ 5.63 µM)	–	50 (≈ 93.9 µM)	0.5 (≈ 0.939 µM)	1.5 (≈ 2.82 µM)	6 (≈ 11.3 µM)	MIC (Brucella suis A 1088): 1.5 µg/mL (≈ 2.82 µM)
D-6-[α-{3-(5-methyl-1,2,4-oxadiazol-3-yl-methylamino-sulfonyl)-ureido}-benzylcarbonamido]-penicillanic acid	–	1.5	6	3	50	25	100	–	–	6	–	–	50	–	1.5	–	–	–	–	–	MIC [14]: 0.5 µg/mL; MIC [16]: 25 µg/mL; MIC (Brucella suis A 1088): 3 µg/mL
CC1(C)S[C@@H]2[C@H](NC(=O)[C@H](NC(=O)NP(=O)(OCc3ccccc3)c3ccccc3)c3ccccc3)C(=O)N2[C@H]1C(=O)O (stereo partly drawn)	3 (≈ 4.82 µM)	–	–	1.5 (≈ 2.41 µM)	25 (≈ 40.2 µM)	3 (≈ 4.82 µM)	50 (≈ 80.3 µM)	3 (≈ 4.82 µM)	–	25 (≈ 40.2 µM)	0.75 (≈ 1.2 µM)	–	25 (≈ 40.2 µM)	–	6 (≈ 9.64 µM)	–	25 (≈ 40.2 µM)	0.12 (≈ 0.193 µM)	3 (≈ 4.82 µM)	3 (≈ 4.82 µM)	MIC [14]: 0.06 µg/mL (≈ 0.0964 µM); MIC [16]: 25 µg/mL (≈ 40.2 µM); MIC (Brucella suis A 1088): 1.5 µg/mL (≈ 2.41 µM)
CN(C)P(=O)(NC(=S)N[C@@H](C(=O)N[C@@H]1C(=O)N2[C@@H]1SC(C)(C)[C@@H]2C(=O)O)c1ccccc1)N(C)C	–	–	100 (≈ 184 µM)	1.5 (≈ 2.76 µM)	–	–	> 100	–	50 (≈ 92.1 µM)	50 (≈ 92.1 µM)	1.5 (≈ 2.76 µM)	0.12 (≈ 0.221 µM)	25 (≈ 46.1 µM)	25 (≈ 46.1 µM)	6 (≈ 11.1 µM)	1.5 (≈ 2.76 µM)	25 (≈ 46.1 µM)	0.5 (≈ 0.921 µM)	3 (≈ 5.53 µM)	3 (≈ 5.53 µM)	MIC (Proteus mirabilis L 93): 1.5 µg/mL (≈ 2.76 µM); MIC [13]: 1.0 µg/mL (≈ 1.84 µM)
CC1(C)S[C@@H]2[C@H](NC(=O)[C@H](NC(=O)NP(=O)(OCc3ccccc3)OCc3ccccc3)c3ccccc3)C(=O)N2[C@H]1C(=O)O	6 (≈ 9.19 µM)	3 (≈ 4.6 µM)	–	0.5 (≈ 0.766 µM)	25 (≈ 38.3 µM)	–	50 (≈ 76.6 µM)	6 (≈ 9.19 µM)	–	6 (≈ 9.19 µM)	0.75 (≈ 1.15 µM)	–	25 (≈ 38.3 µM)	–	3 (≈ 4.6 µM)	–	50 (≈ 76.6 µM)	0.5 (≈ 0.766 µM)	3 (≈ 4.6 µM)	–	MIC [14]: 0.25 µg/mL (≈ 0.383 µM); MIC [16]: 25 µg/mL (≈ 38.3 µM); MIC (Brucella suis A 1088): 1.5 µg/mL (≈ 2.3 µM)
CN(C)P(=O)(NC(=O)N[C@@H](C(=O)N[C@@H]1C(=O)N2[C@@H]1SC(C)(C)[C@@H]2C(=O)O)c1ccccc1)N(C)C	–	25 (≈ 47.5 µM)	100 (≈ 190 µM)	0.5 (≈ 0.95 µM)	100 (≈ 190 µM)	6 (≈ 11.4 µM)	> 100	25 (≈ 47.5 µM)	50 (≈ 95 µM)	50 (≈ 95 µM)	1 (≈ 1.9 µM)	0.06 (≈ 0.114 µM)	50 (≈ 95 µM)	–	25 (≈ 47.5 µM)	3 (≈ 5.7 µM)	50 (≈ 95 µM)	1.5 (≈ 2.85 µM)	3 (≈ 5.7 µM)	6 (≈ 11.4 µM)	MIC (Proteus mirabilis L 93): 3 µg/mL (≈ 5.7 µM); MIC [13]: 0.12 µg/mL (≈ 0.228 µM)
CCOP(=O)(NC(=O)N[C@@H](C(=O)N[C@@H]1C(=O)N2[C@@H]1SC(C)(C)[C@@H]2C(=O)O)c1ccccc1)OCc1ccccc1 (stereo partly drawn)	6 (≈ 10.2 µM)	3 (≈ 5.08 µM)	–	0.5 (≈ 0.847 µM)	25 (≈ 42.3 µM)	6 (≈ 10.2 µM)	50 (≈ 84.7 µM)	6 (≈ 10.2 µM)	–	–	0.5 (≈ 0.847 µM)	–	25 (≈ 42.3 µM)	3 (≈ 5.08 µM)	1.5 (≈ 2.54 µM)	–	50 (≈ 84.7 µM)	0.25 (≈ 0.423 µM)	6 (≈ 10.2 µM)	6 (≈ 10.2 µM)	MIC (Brucella suis A 1088): 1.5 µg/mL (≈ 2.54 µM)

From US3945994A, “Novel acid compounds” (Gist-Brocades N.V., priority 1973, dated 1976)
